Measured values from several laboratories, pooled; numbers as filed in NIAID ChemDB.

Shared fields: tests in culture; organism: Candida albicans; endpoint: MIC

a–b is a range or a potency band. Lines come from different laboratories, so protocols vary. An empty or dashed field is not shown.

smiles,strain or isolate,result
COc1ccc(C2C(C)C(=O)C(C)C(c3ccc(OC)cc3)N2OCCc2nc3ncccc3[nH]2)cc1,NCIM-C27,25 µg/mL
C[C@]12C=C[C@H]3[C@@](C)(C(=O)O)CCC[C@]3(C)C1CC(=O)O2,CECT 1394,>100 µg/mL
CC1C(=O)CC(c2ccc(Cl)cc2)N(OCCc2nc3ncccc3[nH]2)C1c1ccc(Cl)cc1,51 (NCIM-C27),12.5 µg/mL
CCCCCOc1ccc(-c2ccc(-c3ccc(C(=O)N[C@H]4CCCNC(=O)[C@@H]5C[C@H](N)CN5C(=O)[C@H](CC)NC(=O)C(CCc5ccc(O)cc5)NC(=O)[C@@H]5C[C@@H](O)CN5C(=O)[C@H]([C@@H](C)O)NC4=O)cc3)cc2)cc1,ATCC 10231,0.1 µg/mL
CCn1c(-c2ccccn2)noc1=S,,0.95 µg/mL
O=C1CC(c2ccc(Cl)cc2)N(OCCc2nc3ncccc3[nH]2)C(c2ccc(Cl)cc2)C1,6 (NCIM-C27),12.5 µg/mL
C=C1[C@H](OC(=O)C(F)(F)F)C[C@@H]2[C@](C)(CCC[C@]2(C)C(=O)OC)[C@H]1CC(=O)OC,CECT 1394,>100 µg/mL
Cc1ccc(-n2c(-c3ccccc3)nsc2=S)cc1,,0.09 µg/mL
CC[C@@H]([C@H](C)O)n1ncn(-c2ccc(N3CCN(c4ccc(OC[C@@H]5CO[C@@](Cn6cncn6)(c6ccc(F)cc6F)C5)cc4)CC3)cc2)c1=O,Isolate CA-1,>4 µg/mL
CCC(C)CC(C)CCCCCCCCC(=O)N[C@H]1C[C@@H](O)[C@@H](OCCN)NC(=O)[C@@H]2C[C@@H](O)CN2C(=O)[C@H]([C@H](O)CC(N)=O)NC(=O)[C@H]([C@H](O)[C@@H](O)c2ccc(O)cc2)NC(=O)[C@@H]2C[C@@H](O)CN2C(=O)[C@H]([C@@H](C)O)NC1=O,40 isolates,16 µg/mL
CCCCCOc1ccc(-c2ccc(-c3ccc(C(=O)N[C@H]4CCCNC(=O)C5C[C@H](NS(C)(=O)=O)CN5C(=O)C(C(C)O)NC(=O)C(CCc5ccc(O)cc5)NC(=O)C5C[C@@H](O)CN5C(=O)C(C(C)O)NC4=O)cc3)cc2)cc1,ATCC 10231,0.2 µg/mL
C=C1C=C[C@@H]2[C@](C)(CCC[C@]2(C)C(=O)OC)[C@H]1CC(=O)OC,CECT 1394,>100 µg/mL
C[C@H](N)C(=O)N[C@@H](C(=O)O)n1cc(F)c(=O)[nH]c1=O,BC759,>100 µg/mL
C[C@H]1[C@H](O)[C@@H](C)/C=C/C=C/C=C/C=C/C=C/C=C/C=C/[C@H](O[C@@H]2O[C@H](C)[C@@H](O)[C@H](N)[C@@H]2O)C[C@@H]2O[C@](O)(C[C@@H](O)C[C@@H](O)CC[C@H](O)[C@@H](O)C[C@@H](O)CC(=O)O[C@H]1C)C[C@H](O)[C@H]2C(=O)O,KB 83/005 (azole-resistant),0.13 µg/mL
C/C(=N\NC(=S)Nc1cccc(Cl)c1)c1c(O)ccc2c(C)cc(=O)oc12,,10 µg/mL
CCC(C)n1ncn(-c2ccc(N3CCN(c4ccc(OC[C@H]5CO[C@](Cn6cncn6)(c6ccc(Cl)cc6Cl)O5)cc4)CC3)cc2)c1=O,Isolate CA-7,>8 µg/mL
CCCCCOc1ccc(-c2ccc(-c3ccc(C(=O)N[C@H]4CCCNC(=O)[C@@H]5C[C@H](N)CN5C(=O)[C@H](CCCN)NC(=O)C(CCc5ccc(O)cc5)NC(=O)[C@@H]5C[C@@H](O)CN5C(=O)[C@H]([C@@H](C)O)NC4=O)cc3)cc2)cc1,ATCC CCH442,0.39 µg/mL
Cc1nn(-c2ccccc2)c2c1C(c1ccc(O)cc1)c1c(nc(=O)[nH]c1N)O2,MTCC 227,150 µg/mL
CC1C(=O)C(C)C(c2ccc(Cl)cc2)N(OCCc2nc3ncccc3[nH]2)C1c1ccc(Cl)cc1,NCIM-C27,25 µg/mL
C[C@H](N)C(=O)N[C@H](C(=O)O)n1cc(F)c(=O)[nH]c1=O,B-310,12.5 µg/mL
COC(=O)[C@@]1(C)CCC[C@]2(C)C3CC(=O)OCC3C=C[C@@H]12,CECT 1394,25–50 µg/mL
CCC(C)CC(C)CCCCCCCCC(=O)N[C@@H]1C[C@@H](O)[C@@H](O)NC(=O)[C@@H]2[C@@H](O)CCN2C(=O)[C@H]([C@@H](O)CCN)NC(=O)[C@H]([C@H](O)[C@@H](O)c2ccc(O)cc2)NC(=O)[C@@H]2C[C@@H](O)CN2C(=O)[C@H]([C@H](C)O)NC1=O,40 isolates,0.12 µg/mL
CCCn1c(-c2ccccn2)noc1=S,,0.45 µg/mL
C[C@]1(C(=O)O)CCC[C@]2(C)C3CC(=O)O[C@@]3(CI)C=C[C@@H]12,CECT 1394,>100 µg/mL
Cc1ccc(C2c3c(nc(=S)[nH]c3N)Oc3c2c(C)nn3-c2ccccc2)cc1,MTCC 227,1000 µg/mL
CCCCCCCCCCCCCCCC(=O)N[C@H]1CCCNC(=O)C2C[C@H](N)CN2C(=O)C(C(C)O)NC(=O)C(CCc2ccc(O)cc2)NC(=O)C2C[C@@H](O)CN2C(=O)C(C(C)O)NC1=O,ATCC CCH442,0.39 µg/mL
Cc1nn(-c2ccccc2)c2c1C(c1cccc(Cl)c1)c1c(nc(=S)[nH]c1N)O2,MTCC 227,1000 µg/mL
CCCCCOc1ccc(-c2ccc(-c3ccc(C(=O)N[C@H]4CCCNC(=O)C5C[C@H](N)CN5C(=O)C(Cc5cnc[nH]5)NC(=O)C(CCc5ccc(O)cc5)NC(=O)C5C[C@@H](O)CN5C(=O)C(C(C)O)NC4=O)cc3)cc2)cc1,ATCC 10231,0.78 µg/mL
CN[C@@H]1[C@H](O[C@@H]2OC[C@@H](O)[C@H](O)[C@H]2O)[C@@H](O)[C@H](O[C@H]2c3cc(C)c(C(=O)N[C@H](C)C(=O)O)c(O)c3-c3c(cc4c(c3O)C(=O)c3cc(OC)cc(O)c3C4=O)[C@@H]2O)O[C@@H]1C,A9540,6.3 µg/mL
O=c1snc(-c2ccccn2)n1-c1ccccc1,,0.05 µg/mL
CCCCCCCCCCCCOc1ccc(N2CCN(c3ccc(C(=O)N[C@H]4CCCNC(=O)C5C[C@H](N)CN5C(=O)C(C(C)O)NC(=O)C(CCc5ccc(O)cc5)NC(=O)C5C[C@@H](O)CN5C(=O)C(C(C)O)NC4=O)cc3)CC2)cc1,ATCC CCH442,0.78 µg/mL
C[C@H]1[C@H](O)[C@@H](C)/C=C/C=C/C=C/C=C/C=C/C=C/C=C/[C@H](O[C@@H]2O[C@H](C)[C@@H](O)[C@H](N)[C@@H]2O)C[C@@H]2O[C@](O)(C[C@@H](O)C[C@@H](O)CC[C@H](O)[C@@H](O)C[C@@H](O)CC(=O)O[C@H]1C)C[C@H](O)[C@H]2C(=O)O,IAM4888,0.4 µg/mL
S=c1nc(-c2ccccc2)[nH]s1,,0.13 µg/mL
Cc1nn(-c2ccccc2)c2c1C(c1cccc(Cl)c1)C(C#N)=C(N)O2,MTCC 227,1000 µg/mL

For reference, 5 entries again:

smiles,strain or isolate,result
Cc1ccc(-n2c(-c3ccccc3)nsc2=S)cc1,,0.09 µg/mL
CCCCCOc1ccc(-c2ccc(-c3ccc(C(=O)N[C@H]4CCCNC(=O)[C@@H]5C[C@H](N)CN5C(=O)[C@H](CC)NC(=O)C(CCc5ccc(O)cc5)NC(=O)[C@@H]5C[C@@H](O)CN5C(=O)[C@H]([C@@H](C)O)NC4=O)cc3)cc2)cc1,ATCC 10231,0.1 µg/mL
CCCCCOc1ccc(-c2ccc(-c3ccc(C(=O)N[C@H]4CCCNC(=O)C5C[C@H](N)CN5C(=O)C(Cc5cnc[nH]5)NC(=O)C(CCc5ccc(O)cc5)NC(=O)C5C[C@@H](O)CN5C(=O)C(C(C)O)NC4=O)cc3)cc2)cc1,ATCC 10231,0.78 µg/mL
C[C@H](N)C(=O)N[C@H](C(=O)O)n1cc(F)c(=O)[nH]c1=O,B-310,12.5 µg/mL
C=C1[C@H](OC(=O)C(F)(F)F)C[C@@H]2[C@](C)(CCC[C@]2(C)C(=O)OC)[C@H]1CC(=O)OC,CECT 1394,>100 µg/mL